The values below are quoted from earlier work in PubChem BioAssay AID1811.

Common to all, as to test: PubChem AID 1811
Holding throughout (settings): PDB complex binding affinities from literature; Ki when reported

Data set [1] has as its target HIV-1 protease I84V.
For data set [2], the target named is HIV-1 protease v82f i84v.
The target in data set [3] is HIV-1 protease V82F.

SMILES strings stand for the structures.

On to `O=C1N(Cc2ccc(CO)cc2)[C@H](Cc2ccccc2)[C@H](O)[C@@H](O)[C@@H](Cc2ccccc2)N1Cc1ccc(CO)cc1`, for which the Ki is 20 nM in data set [1], 800 nM in data set [2] and 0.4 nM in data set [3].
